Measured data: PubChem BioAssay AID624099 (ICCB-Longwood, 2012)
The deposit covers about 21,000 reagents; shown is a random part of them. 497 of all reagents (2.4%) count as active. 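Higher z means weaker E2 silencing; only reporter increases were scored, and knock-downs that hurt cell survival may mask genuine repressor factors.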 Entries without a mark were called inactive. Reagents against one gene are numbered here. No sequences are given here.

Purpose: 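Host factors E2 relies on to silence an HPV18 LCR reporter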 (primary screen)
System: human C33A cervical carcinoma cells (HPV-negative) stably expressing BPV1 E2 and an HPV18 LCR luciferase reporter
Knock-down reagent: siRNA pool against human genes, 40 nM
Duration: 72 h
Measurement: 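Per-well luciferase luminescence, z-scored on each plate against the plate mean and SD with control wells left out, then averaged across three replicate plates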
Reading the numbers: mean z-score and z-score: higher = stronger reporter signal, weaker E2 silencing
Active means: 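Mean z ≥ 2 together with z ≥ 2 in two or more of the three replicates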

The opening 2 entries as a preview:
target	reagent	mean z-score	z-score, replicate A	z-score, replicate B	z-score, replicate C
LASP1	1	-1.08	-0.88	-1.15	-1.22
SERPINB10	1	0.64	0.5	0.7	0.71

Main list, repeating the preview:
target	reagent	mean z-score	z-score, replicate A	z-score, replicate B	z-score, replicate C
LASP1	1	-1.08	-0.88	-1.15	-1.22
SERPINB10	1	0.64	0.5	0.7	0.71
SLC30A8	1	0.58	0.63	0.67	0.44
SHANK3	1	-0.89	-1.09	-0.84	-0.74
HOXB8	1	0.73	1.09	0.3	0.78
CTC1	1	0.35	0.35	0.49	0.21
ERVFRD-2	1	-1.45	-1.9	-1.39	-1.06
CST7	1	-0.38	-0.42	-0.44	-0.3
FTH1P19	1	0.29	0.51	0.16	0.19
BLCAP	1	-0.42	-0.46	-0.29	-0.51
GMNN	1	1.47	1.69	1.52	1.21
SERPIND1	1	-1.07	-0.72	-1.31	-1.18
PPP1R10	1	-0.37	-0.01	-0.29	-0.83
SLC35G1	1	-0.52	-0.64	-0.5	-0.43
BPY2B	1	-0.49	-0.32	-0.52	-0.64
AKAP9	1	-0.09	-0.37	0.09	0.02
LINC01148	1	-1.82	-1.81	-2.25	-1.4
SEMA4D	1	0.16	0.51	-0.07	0.04
SEMA4D	2	1.94	2.19	1.66	1.96
TBC1D25	1	0.02	0.16	-0.17	0.08
SLC30A4	1	0.1	0.01	0.28	0.02
PPP2R5D	1	0.1	0.21	-0.05	0.12
LGALS17A	1	-0.08	-0.03	-0.52	0.3
TLR7	1	-0.37	-0.34	-0.1	-0.67
ARPC5	1	0.68	0.65	0.94	0.45
ATXN7L1	1	0.07	-0.07	0.04	0.23
ATXN7L1	2	0.53	0.47	0.48	0.65
NLRP5	1	0.25	0.11	0.34	0.29
NFIX	1	-0.88	-0.67	-0.82	-1.14
VNN3P	1	0.63	0.72	0.53	
TMEM79	1	-0.07	-0.49	0.35	-0.08
CFHR3	1	0.32	0.25	0.43	0.29
GPR15	1	-0.49	-0.53	-0.66	-0.27
SEC61A1	1	0.68	0.58	0.7	0.78
PIAS1	1	0.66	0.53	0.69	0.76
FOXS1	1	2.04	2.43	2	1.69
THAP8	1	-2.11	-2.06	-2.34	-1.93
LOC388295 (retired record)	1	0.67	0.62	0.55	0.84
CD300LD-AS1	1	0.82	1.01	0.74	0.69
IRGQ	1	0.11	-0.21	0.23	0.31
C11orf86	1	0.07	-0.1	0.18	0.15
BLTP1	1	0.09	0.16	-0.07	0.17
HTN3	1	1.02	0.7	1.06	1.31
ICAM4	1	-0.44	-0.36	-0.43	-0.54
PDS5B	1	-0.6	-1.3	-0.12	-0.39
WDCP	1	-1.1	-1.14	-1.42	-0.74
SDR42E1	1	-0.35	-0.46	-0.33	-0.26
GDF15	1	-0.78	-0.94	-0.68	-0.71
LOC102723968	1	-0.78	-0.75	-0.64	-0.94
SLC7A5P1	1	-1.36	-1.66	-1.3	-1.13
OC90	1	0.3	0.29	0.25	0.35
TAS2R4	1	2.63 (active)	2.87	2.29	2.72
RPL36P5	1	-0.03	0.28	-0.06	-0.31
RPL36P5	2	0.93	1.2	0.92	0.68
LOC400790 (retired record)	1	-0.59	-0.13	-0.88	-0.76
DSCAM	1	0.14	0.13	0.29	-0.01
SLC5A8	1	-0.69	-0.79	-0.45	-0.83
